From article PMC5444859 come the findings set out here.

The exact form of at least one protein or probe is not confirmed.

This data set concerns influenza virus PB2 (influenza virus). Put plainly: EMSA. To be noted: 5 mM MgCl2, 5 pmol protein, 0.4 pmol RNA; 5' cap added with capping enzymes (Cellscript); recombinant protein; label: 32P in cap (alpha-32P-GTP).

For “AAAAAAAAAAAAAAAAAAAAAAAAAAAAAAAAAAAAAAAA [capped polyA 40mer RNA]”, the binding result is “binds”.
